{"source": "patent EP0893123A1", "about": "“AGENT FOR USE IN THE PREVENTION AND TREATMENT OF DISORDERS ASSOCIATED WITH VARIOUS TYPES OF AGEING” (Peganov, Eduard Maximovich, priority 1995, dated 1997)", "tested_on": "pneumococcus", "experiment": "Bacterial shock model (intraperitoneal pneumococcus culture, minimal lethal dose)", "conditions": "with additional treatment during shock to maintain blood circulation, fig. 6"}
{"substance": "deuterium oxide [heavy water]", "values": [{"measurement": "animals that overcame the shock and survived", "value": "half of them could overcome the shock and survived"}]}
